Only a part is listed here, and it is no random draw. Some salts and complexes are drawn in separate pieces, as the source files them; their charges need not balance. Activity calls are given as the source filed them. No stated cut-off is given here; in the data, active means inhibition above about 30%; inconclusive means no clear call, values can overlap the other calls; inactive means below that.

Sequences of proteins named here, by UniProt entry; tags and fusion partners are left off.
UniProt P9WHJ3, whole entry: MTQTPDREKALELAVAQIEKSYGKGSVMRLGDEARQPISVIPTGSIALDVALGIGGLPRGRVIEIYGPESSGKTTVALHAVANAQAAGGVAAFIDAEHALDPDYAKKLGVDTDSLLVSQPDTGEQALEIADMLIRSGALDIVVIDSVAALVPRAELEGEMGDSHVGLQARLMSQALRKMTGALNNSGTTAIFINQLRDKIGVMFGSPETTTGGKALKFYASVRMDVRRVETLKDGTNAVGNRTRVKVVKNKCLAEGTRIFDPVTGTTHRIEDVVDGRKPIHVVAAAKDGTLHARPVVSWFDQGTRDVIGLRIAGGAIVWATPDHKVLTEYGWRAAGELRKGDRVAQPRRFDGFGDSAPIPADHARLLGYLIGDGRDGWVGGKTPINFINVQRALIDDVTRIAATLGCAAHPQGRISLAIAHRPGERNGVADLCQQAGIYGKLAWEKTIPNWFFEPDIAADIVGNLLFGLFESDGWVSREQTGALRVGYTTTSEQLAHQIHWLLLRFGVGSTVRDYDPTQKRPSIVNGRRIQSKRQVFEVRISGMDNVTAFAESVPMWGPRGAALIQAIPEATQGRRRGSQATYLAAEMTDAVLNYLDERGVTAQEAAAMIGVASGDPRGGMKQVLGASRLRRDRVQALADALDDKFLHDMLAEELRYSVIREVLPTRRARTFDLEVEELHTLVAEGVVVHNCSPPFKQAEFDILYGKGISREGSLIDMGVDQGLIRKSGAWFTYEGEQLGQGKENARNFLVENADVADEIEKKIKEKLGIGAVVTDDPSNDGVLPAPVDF

This assay deals with Protein RecA (Mycobacterium tuberculosis (strain ATCC 25618 / H37Rv)) (UniProt P9WHJ3). Briefly: Mtb RecA intein splicing inhibitors, primary screen, biochemical, fluorescence, HTS (AID 2221).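 Further: 0% = vehicle wells and 100% = reference inhibitor control wells.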 The conditions noted are these: cell-free RecA intein splicing, active compounds read high, concentration not given here.
For orientation: inhibition means the drop in the measured response relative to a control, in per cent. As to `O=[N+]([O-])c1cc([N+](=O)[O-])c(Nc2nnnn2CCO)c([N+](=O)[O-])c1`, the inhibition is inactive: 4.72%.
On to `CN(C)C1(CNC(=O)c2ccc(S(C)(=O)=O)cc2)CCCCC1`, for which the inhibition is inactive: -0.55%.
Next, `COc1cc(C2NCCC3(OCCO3)C2(C)C)cc(OC)c1OC.O=[N+]([O-])c1cc([N+](=O)[O-])c(O)c([N+](=O)[O-])c1` (stereo not given): inactive: -1.95%.
As for `Cc1ccc(C(=O)OC2CN3CCC2CC3)cc1` (stereo not given), the figure is inactive: 1.27%; as for `CC1CCC(C(C)C)C(OP(=O)(Nc2ccccn2)c2ccccc2)C1` (stereo not given), inactive: 3.42%; as for `Cc1nn(-c2ccccc2)c2c1P(=O)(N1CCOCC1)N(C)C(c1ccccc1)=N2` (stereo not given), inactive: -1.07%.
As for `O=P1(Nc2ccc(Br)cn2)COc2ccccc2OC1`, the figure is inactive: -1.9%; as for `O=[As](O)(c1cccs1)c1cccs1`, inactive: -1.14%; as for `Cc1ccc(OCC(=O)OC2CN3CCC2CC3)cc1` (stereo not given), inactive: 3.42%.
In the case of `Nc1cccc([As](=O)(O)c2ccccc2)c1`, the inhibition was inactive: 0.511%.
As for `CP(=O)(Nc1ccc(SC(F)(F)F)cc1)Oc1ccccc1` (stereo not given), the figure is inactive: 0.939%; as for `CCCOc1ccc(NP(C)(=O)Oc2ccc(Cl)cc2)cc1` (stereo not given), inactive: 2.48%.
As for `CN1CCCCC1COC(=O)C1(O)c2ccccc2CCc2ccccc21` (stereo not given), the figure is inactive: 1.71%.
For the compound `COc1ccccc1OP(C)(=O)Nc1c(C)cccc1C` (stereo not given), the inhibition is inactive: 4.14%.
Next, `O=C(O)COc1ccc([As](=O)(O)O)cc1[N+](=O)[O-]`: inactive: 0.461%.
As for `Nc1ccccc1[As](=O)(O)c1ccccc1`, the figure is inactive: -1.45%.
In the case of `CS(=O)(=O)c1cc([N+](=O)[O-])c2no[n+]([O-])c2c1`, the inhibition was inactive: 5.44%.
In the case of `O=P(Nc1nccs1)(c1ccccc1)c1nc2ccccc2s1` (stereo not given), the inhibition was inactive: 25.7%.
With `O=P(Nc1nccs1)(Oc1ccccc1)Oc1ccccc1`, the inhibition was inactive: -1.39%.
Next, `O=C(O)c1cccc(Nc2c([N+](=O)[O-])cc([N+](=O)[O-])cc2[N+](=O)[O-])c1`: active: 81.7%; `CCOP1(=S)c2c(C)nn(CCC#N)c2N=C(c2ccccc2F)N1C` (stereo not given): inactive: 1.16%.
Consider `CN(C(=O)Cc1ccc(Cl)c(Cl)c1)[C@H]1CC[C@@]2(CCCO2)C[C@@H]1N1CCCC1`, for which the inhibition is inactive: 2.28%.
As for `CC1=NCCc2c1[nH]c1ccccc21.O=[N+]([O-])c1cc([N+](=O)[O-])c(O)c([N+](=O)[O-])c1`, the figure is inactive: -11.6%; as for `CN(C)C(=O)c1cc([N+](=O)[O-])cc2c1-c1c(cc([N+](=O)[O-])cc1[N+](=O)[O-])C2=O`, inactive: 4.59%; as for `O=[N+]([O-])c1ccc2c(c1)nnn2O`, inactive: -1.59%.
Take `CN(C(=O)Cc1ccccc1)[C@@H]1CC[C@]2(CCCO2)C[C@H]1N1CCCC1`: the inhibition was inactive: -3.59%.
As for `N#CCCN(C(=O)COC(=O)C(O)(c1ccccc1)c1ccccc1)c1ccc(F)cc1`, the figure is inactive: 6.9%; as for `NC(=O)Nc1ccc([As](=O)(O)O)cc1`, inactive: 0.865%.
`CCOC(=O)c1ccc(NP(C)(=O)Oc2cc(C)cc(C)c2)cc1` (stereo not given): the inhibition is inactive: 1.95%.
Next, `Cc1cc(C)cc(OP(C)(=O)Nc2ccc(C)cc2C)c1` (stereo not given): inactive: -0.548%; `O=[As](O)(c1cccc(O)c1)c1cccc(O)c1`: inactive: -3.84%.
Next, `Cc1cccc(OCC(=O)OC2CN3CCC2CC3)c1` (stereo not given): inactive: 2.05%; `COc1ccccc1OP(C)(=O)Nc1cccc(Br)c1` (stereo not given): inactive: 11.6%.
With `COc1cc(C(=O)NCC2(N3CCOCC3)CCCCC2)cc(Cl)c1OC(C)C`, the inhibition is inactive: 2.81%.
Next, `O=[As](O)(O)c1cccnc1`: inactive: 0.288%; `O=C(OC1CN2CCC1CC2)c1ccc(Cl)cc1` (stereo not given): inactive: 7.41%.
Next, `CCOP(=O)(Nc1cccc2ccccc12)OCC`: inactive: 2.32%; `CCCOP(=S)(Nc1nc(N)cc(=O)[nH]1)OCCC`: inactive: 0.228%.
For the compound `Cc1ccc(C)c(NP(C)(=O)Oc2ccccc2)c1` (stereo not given), the inhibition was inactive: 0.909%.
`Nc1cccc2c([As](=O)(O)O)cccc12`: the inhibition was inactive: 25.1%.
As for `Cc1ccc(NCCc2c([N+](=O)[O-])cc([N+](=O)[O-])cc2[N+](=O)[O-])cc1`, the figure is inactive: 6.31%; as for `CP(=O)(Nc1cccc(Br)c1)Oc1ccccc1` (stereo not given), inactive: 3.91%; as for `Cc1cc(C)cc(OP(C)(=O)Nc2ccccn2)c1` (stereo not given), inactive: 0.558%.
Next, `CP(=O)(Nc1ccccc1F)Oc1ccccc1` (stereo not given): inactive: 1.92%; `CC(C)c1ccc(OP(C)(=O)Nc2ccc(SC(F)(F)F)cc2)cc1` (stereo not given): inactive: -0.386%.
Next, `CC(C)(C)C(=O)NC(Sc1ccccc1)C(Cl)(Cl)Cl` (stereo not given): inactive: 0.826%; `CCOc1ccc(C2=NCC(CBr)S2)cc1` (stereo not given): inactive: 0.387%; `O=P1(Nc2nc3ccc(Cl)cc3s2)COc2ccccc2O1` (stereo not given): inactive: -2.72%.
As to `CC(=O)Nc1ccc(Oc2c([N+](=O)[O-])cc([N+](=O)[O-])cc2[N+](=O)[O-])cc1`, the inhibition was inactive: 13.5%.
Next, `COc1ccc2c(c1O)-c1c(O)c(OC)cc3c1[C@H](C2)[N+](C)(C)CC3.O=[N+]([O-])c1cc([N+](=O)[O-])c([O-])c([N+](=O)[O-])c1[O-]`: inactive: -1.47%; `CC(=O)Nc1ccc([As](=O)(O)O)c(O)c1`: inactive: -0.924%.
As to `O=C(OC1CN2CCC1CC2)c1ccc([N+](=O)[O-])cc1` (stereo not given), the inhibition was inactive: -0.261%.
Next, `CC(=O)c1ccc(N2CC2c2ccncc2)cc1` (stereo not given): inactive: -1.1%; `C[C@@H]1C=CCP(=O)(Oc2ccccc2)O1` (stereo not given in full): inactive: 0.0669%; `C[C@H]1OP(=O)(Oc2ccccc2)C[C@@H]2O[C@@H]21` (stereo not given in full): inactive: 1.17%.
Next, `O=C(OCCN1CCN(CCOCc2ccccc2)CC1)C(O)(c1ccccc1)c1ccccc1`: inactive: 11.5%.
Next, `CCOC(=O)c1ccc(NP(C)(=O)Oc2ccc(F)cc2)cc1` (stereo not given): inactive: -0.583%.
With `O=C(NC1CCS(=O)(=O)C1)NP(=S)(Oc1ccccc1)Oc1ccccc1` (stereo not given), the inhibition was inactive: 2.64%.
Next, `CCNC(=S)/N=C(\N)N[N+](=O)[O-]`: inactive: 0.409%; `CCOC(=O)NC(Sc1ccccc1)C(Cl)(Cl)Cl` (stereo not given): inactive: -0.945%.

Values taken from PubChem BioAssay AID2221 (Broad Institute, 2009).
